Data as given in PubChem BioAssay AID1259414 (Drosophila RNAi Screening Center, 2018)
The screen tested about 24,000 reagents; below is an unselected part of those that have a named target and a result. Over the whole deposit, about 1,210 (5%) were called active. 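Inactive calls also include excluded dsRNAs with several or no targets, genes unexpressed in JW18, and well A1, regardless of score.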 A number with no mark means an inactive call. Reagents against one gene are numbered here. Names joined by + are all predicted targets of the reagent. No sequences are given here.

- Test: 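Host factors increasing or decreasing Wolbachia levels in cultured fly cells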 (primary screen)
- Cells: Drosophila JW18 cells infected with Wolbachia
- Knock-down reagent: long dsRNA against Drosophila genes, 0.25 µg dsRNA per well of a 384-well plate
- Time to read-out: 5 days
- Challenge: cells persistently infected with Wolbachia before knock-down; no added drug
- Measurement: 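Imaged fluorescence in situ signal for Wolbachia 23S rRNA per DAPI-counted host cell, given as a robust z-score within each plate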
- Direction: Wolbachia per cell robust z: higher = more Wolbachia per host cell than the plate typical
- Call rule: 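Hit when robust z is 1.5 or more, or -1.5 or less, in at least two of three replicates; excludes dsRNAs with several or no targets, genes not expressed in JW18 and well A1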

gene	reagent no.	Wolbachia per cell robust z, rep 1	Wolbachia per cell robust z, rep 2	Wolbachia per cell robust z, rep 3
CG34150	1	0.494	0.795	1
sll	1	-2.8	0.788	0.98
sll	2	-1.18	1.02	-2.01
CG11200	1	-0.257	0.435	0.0953
CG11200	2	0.85	0.738	0.196
CG1607	1	-0.0224	0.303	0.36
CG1607	2	0.815	-0.162	-0.896
CG33296	1	1.6	0.626	0.883
CG33296	2	-0.213	0.954	0.574
CG6362	1	0.0358	-0.292	-0.327
CG6362	2	0.672	-1.5	-1.07
CG18304	1	-0.651	-0.0227	0.609
CG18304	2	0.57	-0.606	-0.936
CG18304	3	0.424	-3.08	-0.493
l(2)dtl	1	-3.89	-0.709	0.968
l(2)dtl	2	-0.17	1.09	0.441
fd96Ca	1	-0.0518	0.00106	1.21
fd96Ca	2	-0.456	0.493	1.42
CG15754	1	0.719	1.23	0.0072
CG15754	2	-0.281	0.898	-4.1
Sting	1	0.878	0.0416	0.74
Sting	2	0.787	-0.022	1.14
Hsp26	1	-0.377	0.793	-0.7
Rab9D + Rab9Fa + Rab9E	1	-1.77	-0.611	-1.13
CG13255	1	-1.17	-0.597	-2.17

Next part, starting with the last 8 of the part before.
gene	reagent no.	Wolbachia per cell robust z, rep 1	Wolbachia per cell robust z, rep 2	Wolbachia per cell robust z, rep 3
fd96Ca	2	-0.456	0.493	1.42
CG15754	1	0.719	1.23	0.0072
CG15754	2	-0.281	0.898	-4.1
Sting	1	0.878	0.0416	0.74
Sting	2	0.787	-0.022	1.14
Hsp26	1	-0.377	0.793	-0.7
Rab9D + Rab9Fa + Rab9E	1	-1.77	-0.611	-1.13
CG13255	1	-1.17	-0.597	-2.17
CG15571	1	0.926	0.246	0.392
CG15571	2	-1.02	0.44	-1.14
CG18537	1	-1.46	-0.0882	0.712
CG18537	2	0.0791	-1	-0.616
nerfin-2	1	-0.263	-0.46	-0.761
nerfin-2	2	0.24	0.241	-0.676
Sln	1	0.887	1.07	0.927
Sln	2	-0.46	-0.449	-0.633
jim	1	-1.89	0.216	0.133
jim	2	0.462	0.0227	-0.415
CG14589	1	0.547	0.534	-4.61
Cib2	1	-1.48	1.46	0.351
CG31189	1	0.783	-2.67	-0.403
Vps53	1	0.962	-8.58	0.535
CG5704	1	-2.18	-0.229	-0.858
CG9521	1	0.394	-0.387	0.177
CG31517	1	-0.271	0.102	1.08
Rift	1	-0.846	-0.047	0.849
B-H2	1	0.0683	0.372	-0.274
B-H2	2	-1.15	-4.02	-0.583
CG33764	1	1.09	0.489	1.53
CG8086	1	-2.84	0.528	0.465
CG8086	2	0.183	-0.213	-0.715
CG8086	3	1.13	0.489	1.2
CG42741	1	1.19	-1.46	0.527
CG42741	2	1.06	0.585	0.907
CG42741	3	0.347	0.181	-0.501
CG3880	1	-1.68	0.365	0.917
CG3880	2	-0.919	-0.54	-0.383
CG3880	3	-0.112	-1.51	-1.28
koi	1	0.297	0.661	0.484
koi	2	0.464	0.121	-2.29
ptc	1	-1.87	-0.0464	2.12
ptc	2	0.326	0.805	-1.31
CG15042	1	-2.4	-0.3	-1.41
CG1827	1	-1.94	-0.355	-0.0981
eIF3l	1	1.29	0.737	0.882
eIF3l	2	-2.13	-0.882	-0.596
CG13062	1	-0.952	0.714	0.3
CG13062	2	0.686	0.179	0.5
CG13062	3	-2.22	-0.113	-0.19
CG17985	1	-0.319	0.129	0.324
Prp6	1	0.673	0.584	0.69
Prp6	2	-0.413	0.422	0.816
